Compound potency records, mixed from different reports. Data source: NIAID ChemDB in PubChem.

Common to all: toxicity to cultured cells; cell line: VERO; endpoint: CC50

CCn: concentration that lowers growth or viability of the cells by n%.

| SMILES | method | result |
|---|---|---|
| O=[N+]([O-])c1ccc(/C=N\O)o1 | - | 11.5 µg/mL |
| CCCCS(=O)(=O)Nc1ccc2[nH]c(C(=O)NCCNC(=O)c3ccc([N+](=O)[O-])o3)c(C)c2c1 | resazurin | 100 µM |
| CC(C)c1ccc2c(c1)CCC1C2(C)CCCC1(C)C(O)c1ccccc1 | - | 30 µg/mL |
| CCCCS(=O)(=O)Nc1ccc2[nH]c(C(=O)NCc3ccc(F)cc3F)c(C)c2c1 | resazurin | 110 µM |
| CC(=O)Oc1c(C)c(O)c(C(C)=O)c2c1C1(C)C(=O)C(C(C)=O)=C(O)C=C1O2 | - | 7.91 µg/mL |
| CC(C)(C)c1cc(C(C)(C)C)c2oc(/C=C/c3ccccc3)nc2c1 | - | 902.2 µg/mL |
| O=C(NNC(=S)Nc1cccc(C(F)(F)F)c1)c1ccncc1 | - | >62.5 µg/mL |
| CCc1nc2ccccc2n1CCCCNc1ccc(C)cc1 | luminescence | 39 µM |
| O=CNCCCC[C@H](NC(=O)[C@@H]1COC(c2ccccc2O)=N1)C(=O)O | - | >64 µg/mL |
| COc1ccc2nc(N/N=C(\C)c3ccccn3)cc(C)c2c1 | - | 0.39 µg/mL |
| O=CNCCCC[C@@H](NC(=O)[C@H]1COC(c2ccccc2O)=N1)C(=O)O | - | >64 µg/mL |
| CC(C)(C)c1cc(C(C)(C)C)c2oc(-c3ccncc3)nc2c1 | - | 39.3 µg/mL |
| CCCCS(=O)(=O)Nc1ccc2[nH]c(C(=O)N[C@@H](C)c3ccccc3)c(C)c2c1 | resazurin | 60.5 µM |
| CCc1nc2ccc(C)cc2n1CCCNc1ccc(C)cc1C | luminescence | 14 µM |
| CC(C)c1cc(=O)c2cc3[nH]c4ccccc4c3cc2[nH]1 | - | 7.4 µg/mL |
| Nc1nc(Cl)c2ncn(C=C3C[C@H]3CO)c2n1 | - | 95 µM |
| Cc1c(CN2CCSCC2)cc(-c2ccccc2Cl)n1-c1ccccc1Cl | - | 8 µg/mL |
| CC(C)c1ccc(O)c(O)c(=O)c1 | MTT | >100 µM |
| Cc1c2c(cc3c1[nH]c1ccccc13)C(c1ccc(F)cc1)=NCC2 | - | 0.88 µg/mL |
| Nc1nccc2c1ncn2[C@@H]1C[C@H](CO)[C@@H](O)[C@H]1O | - | >400 µg/mL |
| Cc1cccc(-n2c(-c3ccc(F)cc3)cc(CN3CCSCC3)c2C)c1 | - | 8 µg/mL |
| CC(C)OC1[C@H](n2ccc(=O)[nH]c2=O)O[C@H](COS(=O)(=O)NC(=O)N[C@@H]2O[C@H](COC(=O)c3ccccc3)[C@@H](OC(=O)c3ccccc3)[C@H](OC(=O)c3ccccc3)[C@H]2OC(=O)c2ccccc2)[C@H]1OC(C)C | - | 300 µg/mL |
| O=C(N/N=C/c1ccccc1F)c1ccncc1 | - | 8 µg/mL |
| Cc1cc(C)c2cc(C(=O)N[C@@H]3CC[Si](C)(C)C3)[nH]c2c1 | visual reading / absorbance | >64 µg/mL |
| Cc1c(CN2CCSCC2)cc(-c2ccccc2)n1-c1cccc2ccccc12 | - | 4 µg/mL |
| C/C(=N\NC(=O)c1ccncc1)c1cccc(/C(C)=N/NC(=O)c2ccncc2)n1 | - | >64 µg/mL |
| CCc1nc2ccccc2n1CCCNc1ccc(C)c(Br)c1 | luminescence | 11 µM |
| Nc1ccn([C@H]2C[C@@H](CO)[C@H](O)[C@@H]2O)c(=O)n1 | - | >100 µM |
| Cc1c2cnccc2c(C)c2c1c1ccccc1n2CCOC(=O)c1ccccc1 | - | 4.44 µg/mL |
| Nc1ncnc2c1ncn2[C@@H]1C[C@H](CO)[C@@H](O)[C@@H]1O | - | 60 µM |
| Cc1cc(C)c(OC(=O)c2ccc(Cl)cc2)c(=O)c(C)c1 | MTT | 100 µM |
| CCCCS(=O)(=O)Nc1ccc2[nH]c(C(=O)NCCc3ccccc3)c(C)c2c1 | resazurin | >120 µM |
| Cc1c(CN2CCSCC2)cc(-c2ccc(F)cc2)n1-c1ccc(F)cc1 | - | 8 µg/mL |
| CC1=NN(C(=O)c2ccncc2)C(=O)C1N=Nc1ccc([N+](=O)[O-])cc1Cl | - | 10.71 µg/mL |
| Cc1ccccc1-n1c(-c2ccc(F)cc2)cc(CN2CCSCC2)c1C | - | 16 µg/mL |
| Nc1nc(=O)n([C@@H]2O[C@H](CO)[C@@H](O)[C@@H]2F)cc1I | - | 21.7 µM |
| CN1c2ccc(C3N(C(=O)C(F)(F)F)C=CN3C(=O)C(F)(F)F)cc2Sc2cc(C3N(C(=O)C(F)(F)F)C=CN3C(=O)C(F)(F)F)ccc21 | - | >10 µg/mL |
| CC(=O)OC[C@H]1O[C@H](OC(=O)NS(=O)(=O)OC[C@H]2O[C@@H](n3ccc(=O)[nH]c3=O)[C@H](OC(C)C)[C@@H]2OC(C)C)[C@@H](OC(C)=O)[C@@H](OC(C)=O)[C@@H]1OC(C)=O | - | 100 µg/mL |
| CCc1nc2ccc(C)cc2n1CCCCNc1cccc(C(F)(F)F)c1 | luminescence | 5.7 µM |
| Cc1c(CN2CCN(C)CC2)cc(-c2cccc3ccccc23)n1-c1ccccc1 | - | 4 µg/mL |
| CC(=O)C(NC(=O)C(C)C(O)C(C)NC(=O)C(NC(=O)c1nc(C(CC(N)=O)NCC(N)C(N)=O)nc(N)c1C)C(OC1OC(CO)C(O)C(O)C1(C)OC1OC(CO)C(O)C(O)(C(N)=O)C1O)c1cnc[nH]1)C(=O)NCCC1=NC(c2nc(C(N)=O)cs2)CS1 | - | 0.8 µg/mL |
| CC(=O)OC[C@H]1O[C@H](OC(=O)NS(=O)(=O)OC[C@H]2O[C@@H](n3ccc(=O)[nH]c3=O)[C@H](OC(C)C)[C@@H]2OC(C)C)[C@H](OC(C)=O)[C@@H](OC(C)=O)[C@@H]1OC(C)=O | - | >100 µg/mL |
| Cc1c(CN2CCN(C)CC2)cc(-c2ccccc2F)n1-c1cccc2ccccc12 | - | 4 µg/mL |
| Cc1c(C#N)[nH]c2ccc(NS(=O)(=O)CCCC(F)(F)F)cc12 | resazurin | >140 µM |
| COc1c(C)c2c3c4c1C(=O)C(=CC4=O)NC(=O)/C(C)=C\C=C\[C@H](C)[C@@H]1OC(C)(C)O[C@@H]([C@@H](C)[C@H](OC(C)=O)[C@H](C)[C@@H](OC)/C=C/O[C@@](C)(O2)C3=O)[C@@H]1C | - | 4.32 µg/mL |
| CCCCS(=O)(=O)Nc1ccc2[nH]c(C#N)c(C)c2c1 | resazurin | 170 µM |
| Nc1c(C(=O)Nc2ccccc2)[n+]([O-])c2ccccc2[n+]1[O-] | - | 3.53 µg/mL |
| Nc1nc(Cl)c2ncn(/C=C3/C[C@H]3CO)c2n1 | - | 52 µM |
| Nc1ccn([C@H]2O[C@@H](CO)[C@H](O)[C@H]2F)c(=O)n1 | - | 15.1 µM |
| CCCCCS(=O)(=O)Nc1ccc2[nH]c(C(=O)NC(C)(C)c3ccccc3)c(C)c2c1 | resazurin | >110 µM |
| OCCNCCN1CCN(CCCN2c3ccccc3Sc3ccc(C(F)(F)F)cc32)CC1 | - | <2.06 µg/mL |
| Cc1c(CN2CCSCC2)cc(-c2ccccc2Cl)n1-c1ccccc1F | - | 8 µg/mL |
| Cc1ccc(NC2=CC(=O)C(=O)c3ccccc32)cc1 | - | 2.28 µg/mL |
| CC(C)O[C@@H]1[C@H](OC(C)C)[C@@H](COS(=O)(=O)NC(=O)O[C@H]2O[C@H](COC(=O)c3ccccc3)[C@H](OC(=O)c3ccccc3)[C@H](OC(=O)c3ccccc3)[C@H]2OC(=O)c2ccccc2)O[C@H]1n1ccc(=O)[nH]c1=O | - | 150 µg/mL |
| CCCCS(=O)(=O)Nc1ccc2[nH]c(C(=O)OCC)c(C)c2c1 | resazurin | >150 µM |
| COc1ccc2c(c1)[n+]([O-])c(C(N)=O)c(N)[n+]2[O-] | - | 13.29 µg/mL |
| CC(=O)NC(CCc1ccc(Cl)c(Cl)c1)c1cccc(O)c(=O)c1 | MTT | >100 µM |
| S=C(Nc1ccc(Cl)cc1)c1ccccn1 | - | 2.88 µg/mL |
| CC(C)O[C@@H]1[C@H](OC(C)C)[C@@H](COS(=O)(=O)NC(=O)O[C@H]2O[C@H](COCc3ccccc3)[C@H](OCc3ccccc3)[C@H](OCc3ccccc3)[C@H]2OCc2ccccc2)O[C@H]1n1ccc(=O)[nH]c1=O | - | 220 µg/mL |
| CC(=O)Oc1c(C)c2c(O)c3c1C1=C(OCOC1=C(C)C3=O)/C(C)=C/[C@@](C)(O)[C@H](O)[C@@H](C)[C@@H](O)[C@H](C(=O)O)[C@H](O)[C@H](C)C(O)[C@H](C)/C=C\C=C(/C)C(=O)N2 | - | 21 µg/mL |
| CC(C)OC1[C@H](n2ccc(=O)[nH]c2=O)O[C@H](COS(=O)(=O)NC(=O)NC[C@H]2O[C@H](COCc3ccccc3)[C@@H](OCc3ccccc3)[C@H](OCc3ccccc3)[C@H]2OCc2ccccc2)[C@H]1OC(C)C | - | 100 µg/mL |
| CCc1nc2ccccc2n1CCCCSc1ncc(C)s1 | luminescence | >50 µM |
| CCCCS(=O)(=O)Nc1ccc2[nH]c(C(=O)N3CCC3)c(C)c2c1 | resazurin | >140 µM |
| C=CCNc1nc2c(s1)c1c(O)c3c(O)c(C)c4c(c32)C(=O)[C@@](C)(O/C=C/[C@H](OC)[C@@H](C)[C@@H](OC(C)=O)[C@H](C)[C@H](O)[C@H](C)[C@@H](O)[C@@H](C)/C=C/C=C(/C)C(=O)N1)O4 | - | >10 µg/mL |
| CC(C)(C)c1cc(C(C)(C)C)c2oc(-c3ccc(Br)cc3)nc2c1 | - | 80.4 µg/mL |
| CC1CC(c2ccc3ccccc3c2)NCCNC(c2ccc3ccccc3c2)CC(C)NCCN1 | - | 1.69 µg/mL |
| O=c1[nH]c(=O)n([C@@H]2O[C@H](CO)[C@@H](O)[C@@H]2F)cc1CO | - | 297 µM |

Again, the opening 6 rows:

SMILES,method,result
O=[N+]([O-])c1ccc(/C=N\O)o1,-,11.5 µg/mL
CCCCS(=O)(=O)Nc1ccc2[nH]c(C(=O)NCCNC(=O)c3ccc([N+](=O)[O-])o3)c(C)c2c1,resazurin,100 µM
CC(C)c1ccc2c(c1)CCC1C2(C)CCCC1(C)C(O)c1ccccc1,-,30 µg/mL
CCCCS(=O)(=O)Nc1ccc2[nH]c(C(=O)NCc3ccc(F)cc3F)c(C)c2c1,resazurin,110 µM
CC(=O)Oc1c(C)c(O)c(C(C)=O)c2c1C1(C)C(=O)C(C(C)=O)=C(O)C=C1O2,-,7.91 µg/mL
CC(C)(C)c1cc(C(C)(C)C)c2oc(/C=C/c3ccccc3)nc2c1,-,902.2 µg/mL

Lines come from different laboratories, so protocols vary. An empty or dashed field is not shown.